This note sets out measurements from PMC12390173, “A Novel Anti-BoNT/A Neutralizing Antibody Possessed Overlapped Epitope with SV2 and Had Prolonged Half-Life In Vivo” (2025).

This experiment addresses SV2C (cell surface receptor of botulinum) (UniProt Q496J9).

Broadly, the Kd is the constant that tells how readily two partners part at equilibrium. Higher therefore signals a looser complex. What is called koff is the first-order rate constant of dissociation. Low readings indicate slow dissociation, high ones fast dissociation. Broadly, the kon is the second-order rate constant of association. Low values mean slower complex formation, high ones faster complex formation. “BoNT/AHC (C-terminus of the BoNT/A heavy chain) (from UniProt P0DPI0)” displayed a Kd of 54.3 nM, a koff of 0.014 s⁻¹ and a kon of 258000 M⁻¹ s⁻¹.
